Consider 1 molecule from patent publication US7192981B2, “3,4-dihydroxyhydrocinnamic acid derivative” (Bionutrigen Co., Ltd., priority 2005, dated 2007).

The subject of the experiment is isolated rat epididymal adipocytes. Briefly: Glucose transport assay (2-DOG uptake). It is filed as cell-based. The conditions noted are these: PAO 1 μM added 10 min before DHH105 500 μM, 4 h.

Take `O=[As]c1ccccc1` (stereo not shown): the “effect on glucose transport induced by DHH105” value is reported as “completely abolished”.
